Single amino acid changes in Zika NS2B-NS3 and viral growth

Protein: NS2B and the protease part of NS3 of Zika virus strain MR766. Positions count along the chain below; NS2B spans 2-131 and NS3 starts at 132.
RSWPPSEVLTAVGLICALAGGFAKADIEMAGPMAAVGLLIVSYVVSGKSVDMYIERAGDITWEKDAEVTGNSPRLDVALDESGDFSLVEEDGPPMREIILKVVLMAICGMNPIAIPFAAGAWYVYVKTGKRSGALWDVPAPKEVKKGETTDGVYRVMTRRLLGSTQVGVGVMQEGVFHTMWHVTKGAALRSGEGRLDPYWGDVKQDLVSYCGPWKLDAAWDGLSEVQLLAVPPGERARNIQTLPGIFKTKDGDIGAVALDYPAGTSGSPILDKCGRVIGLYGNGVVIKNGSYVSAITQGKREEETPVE

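Pools of virus carrying all single amino acid changes were selected for growth in Huh-7.5 cells. Deep sequencing gave the change in frequency of each mutant relative to wild type, averaged over three replicate libraries (two for positions 207-308). The aim was to find sites where inhibitor-binding pockets cannot change.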

Scale: log2 effect, wild type = 0; the lower, the more harmful to the virus.
Each entry names the wild-type residue, its position and the residue put in its place.
The region was split into three libraries (1-103, 104-206, 207-308).
Position 1 still belongs to NS2A. In the paper, -1 or higher counts as tolerated.
Six mutants with high scores were retested singly and none clearly outgrew wild type, so positive values are not proof of better growth.
An asterisk is a stop codon; stop codons read about -7, near the floor of the assay.

* E235Q -> -1.36
* V138K -> -5.08
* E7P -> -6.52
* V138P -> -5.27
* N71C -> -2.81
* L18H -> -7.19
* T10Q -> -2.26
* Y125M -> -2.63
* E174V -> -6.88
* S49A -> -1.96
* I246Y -> -0.19
* P116K -> -6.59
* A121* -> -7.09
* G168A -> -5.75
* N111K -> -4.05
* F22D -> -6.69
* I240R -> -7.44
* G83S -> -7.82
* A25D -> -5.30
* T149K -> -4.82
* G58F -> -5.93
* E235N -> -0.96
* C108N -> -5.98
* G109P -> -6.49
* A35Q -> -6.02
* K288V -> -6.04
* G186F -> -4.58
* P93Y -> -3.30
* F85S -> -5.43
* D202Y -> -4.15
* P198I -> -4.90
* V169I -> -2.68
* S49* -> -6.78
* E302M -> 1.28
* R96L -> -5.05
* F117V -> -1.20
* L75P -> -5.93
* A263N -> -2.41
* V8R -> -5.71
* A119W -> -2.47
* G264M -> -5.19

Extract of 3 entries:

| change | effect (log2) |
|---|---|
| D202Y | -4.15 |
| E235N | -0.96 |
| R96L | -5.05 |

From the data files of Ni et al. 2025, doi:10.1038/s41467-025-63602-z.